Measured values from several laboratories, pooled; numbers as filed in NIAID ChemDB.

Shared fields: whole-cell or culture tests; agent: Mycobacterium avium complex; measure: MIC

Neighbouring rows are from separate reports.

structure	strain or isolate	result
NC[C@H]1O[C@H](O[C@H]2[C@H](O)[C@@H](O[C@H]3O[C@H](CO)[C@@H](O)[C@H](N)[C@H]3O)[C@H](N)C[C@@H]2N)[C@H](O)[C@@H](O)[C@@H]1O	Isolate C-54	>400 µg/mL
NCCC(O)C(N)CC(=O)NC1CNC(=O)C(C2CCN=C(N)N2)NC(=O)/C(=C/NC(N)=O)NC(=O)C(CO)NC(=O)C(CO)NC1=O	TMC 1473	6.25 µg/mL
NNC(=O)c1ccncc1	13011 (serotype 16)	1.6 µg/mL
CC1CN(c2cc3c(cc2F)c(=O)c(C(=O)O)cn3-c2ccc(F)cc2F)CCN1	3212	8 µg/mL
O=C(O)c1cn(C2CC2)c2c(F)c(N3CCNCC3)c(F)cc2c1=O	1988557	4 µg/mL
NNC(=O)c1ccncc1	1168	8 µg/mL
CC(C)(N)C1CCN(c2c(F)cc3c(=O)c(C(=O)O)cn(C4CC4)c3c2F)C1	1915112	16 µg/mL
CC[C@@H](CO)NCCN[C@@H](CC)CO	1129	8 µg/mL
CC[C@@H](CO)NCCN[C@@H](CC)CO	13887 (serotype 14)	0.8 µg/mL
NCC[C@H](O)C(=O)N[C@@H]1C[C@H](N)[C@@H](O[C@H]2O[C@H](CN)[C@@H](O)[C@H](O)[C@H]2O)[C@H](O)[C@H]1O[C@H]1O[C@H](CO)[C@@H](O)[C@H](N)[C@H]1O	3217	4 µg/mL
CN[C@@H]1[C@H](O[C@H]2[C@H](O[C@H]3[C@H](O)[C@@H](O)[C@H](N=C(N)N)[C@@H](O)[C@@H]3N=C(N)N)O[C@@H](C)[C@]2(O)C=O)O[C@@H](CO)[C@H](O)[C@H]1O	Isolate 53	6.25 µg/mL
CC1CN(c2c(F)cc3c(=O)c(C(=O)O)cn(C4CC4)c3c2F)CC(C)N1	1172733	1 µg/mL
CC1COc2c(N3CCN(C)CC3)c(F)cc3c(=O)c(C(=O)O)cn1c23	551/HIV+	8 µg/mL
O=C(O)c1cn(C2CC2)c2c(F)c(N3CCS(=O)(=O)CC3)c(F)cc2c1=O	1915112	4 µg/mL
NC[C@H]1O[C@H](O[C@H]2[C@H](O)[C@@H](O[C@H]3O[C@H](CO)[C@@H](O)[C@H](N)[C@H]3O)[C@H](N)C[C@@H]2N)[C@H](O)[C@@H](O)[C@@H]1O	TMC 1406	0.39 µg/mL
NCC[C@H](O)C(=O)N[C@@H]1C[C@H](N)[C@@H](O[C@H]2O[C@H](CN)[C@@H](O)[C@H](O)[C@H]2O)[C@H](O)[C@H]1O[C@H]1O[C@H](CO)[C@@H](O)[C@H](N)[C@H]1O	969/HIV-	<2 µg/mL
CCn1cc(C(=O)O)c(=O)c2cc(F)c(N3CCNCC3)cc21	CIPT 140310031	20 µg/mL
CO[C@H]1/C=C/O[C@@]2(C)Oc3c(C)c(O)c4c(O)c(c5c(c4c3C2=O)NC2(CCN(CC(C)C)CC2)N=5)=NC(=O)/C(C)=C\C=C\[C@H](C)[C@H](O)[C@@H](C)[C@@H](O)[C@@H](C)[C@H](OC(C)=O)[C@@H]1C	9838	1 µg/mL
CCC1CCN(c2c(F)cc3c(=O)c(C(=O)O)cn(C4CC4)c3c2F)C1	1172733	4 µg/mL
NC[C@@H]1O[C@H](O[C@H]2[C@@H](O)[C@H](O[C@@H]3[C@@H](O)[C@H](N)C[C@H](N)[C@H]3O[C@H]3O[C@H](CO)[C@@H](O)[C@H](O)[C@H]3N)O[C@@H]2CO)[C@H](N)[C@@H](O)[C@@H]1O	Isolate 49	25 µg/mL
CCNCC1CN(c2c(F)cc3c(=O)c(C(=O)O)cn(C4CC4)c3c2F)CC1CNCC	1172733	32 µg/mL
CC1COc2c(N3CCN(C)CC3)c(F)cc3c(=O)c(C(=O)O)cn1c23	CIPT 140310030	20 µg/mL
CN1CCN(c2cc3c(cc2F)c(=O)c(C(=O)O)cn3-c2ccc(F)cc2)CC1	3215	16 µg/mL
O=C(O)c1cn(C2CC2)c2c(F)c(N3CCC(NC4CC4)C3)c(F)cc2c1=O	1172733	1 µg/mL
NC[C@H]1O[C@H](O[C@H]2[C@H](O)[C@@H](O[C@H]3O[C@H](CO)[C@@H](O)[C@H](N)[C@H]3O)[C@H](N)C[C@@H]2N)[C@H](N)[C@@H](O)[C@@H]1O	Isolate 135	12.5 µg/mL
NC[C@@H]1O[C@H](O[C@H]2[C@@H](O)[C@H](O[C@@H]3[C@@H](O)[C@H](N)C[C@H](N)[C@H]3O[C@H]3O[C@H](CO)[C@@H](O)[C@H](O)[C@H]3N)O[C@@H]2CO)[C@H](N)[C@@H](O)[C@@H]1O	559/HIV+	<3.12 µg/mL
CN(C)C1CCN(c2c(F)cc3c(=O)c(C(=O)O)cn(C4CC4)c3c2F)C1	PI12/39	0.5 µg/mL
NCC[C@H](O)C(=O)N[C@@H]1C[C@H](N)[C@@H](O[C@H]2O[C@H](CN)[C@@H](O)[C@H](O)[C@H]2O)[C@H](O)[C@H]1O[C@H]1O[C@H](CO)[C@@H](O)[C@H](N)[C@H]1O	SK47/HIV+	1.25 µg/mL
NCCC[C@H](N)CC(=O)N[C@H]1CNC(=O)[C@H]([C@H]2C[C@H](O)NC(N)=N2)NC(=O)/C(=C/NC(N)=O)NC(=O)[C@H](CO)NC(=O)[C@H](CO)NC1=O	Isolate 49	12.5 µg/mL

For reference, 2 entries again:

structure,strain or isolate,result
NC[C@H]1O[C@H](O[C@H]2[C@H](O)[C@@H](O[C@H]3O[C@H](CO)[C@@H](O)[C@H](N)[C@H]3O)[C@H](N)C[C@@H]2N)[C@H](O)[C@@H](O)[C@@H]1O,Isolate C-54,>400 µg/mL
CCC1CCN(c2c(F)cc3c(=O)c(C(=O)O)cn(C4CC4)c3c2F)C1,1172733,4 µg/mL